Source: patent US4026888A, “Certain derivatives of particular 3-thiolated cephalosporins” (priority 1976, dated 1977)

Assay: Bio-assay

| SMILES | Bio-assay (bio potency, BL-S640 activity) [µg/mg] | also measured |
| --- | --- | --- |
| N[C@@H](C(=O)N[C@@H]1C(=O)N2C(C(=O)O)=C(CSc3cnn[nH]3)CS[C@H]12)c1ccc(O)cc1 [7-[D-α-amino-α-(p-hydroxyphenyl)acetamido]-3-(1,2,3-triazol-] [7-[D-α-amino-α-(p-hydroxyphenyl)acetamido]-3-(1,2,3-triazol-5-ylthiomethyl)-3-cephem-4-carboxylic acid propylene glycol solvate] | 840 to 900 |  |
| N[C@@H](C(=O)N[C@@H]1C(=O)N2C(C(=O)O)=C(CSc3cnn[nH]3)CS[C@H]12)c1ccc(O)cc1 [Methanol Solvate, 7-[D-α-amino-α-(p-hydroxyphenyl)acetamido]-3-(1,2,3-triazol-5-ylthiomethyl)-3-cephem-4-carboxylic acid] | 850 to 900 |  |
| N[C@@H](C(=O)N[C@@H]1C(=O)N2C(C(=O)O)=C(CSc3cnn[nH]3)CS[C@H]12)c1ccc(O)cc1 [dihydrate, 7-[D-α-amino-α-(p-hydroxyphenyl)acetamido]-3-(1,2,3-triazol-5-ylthiomethyl)-3-cephem-4-carboxylic acid dihydrate] |  | Bio-assay (bio potency, BL-S640 activity) (dihydrate): 950 to 1000 µg/mg |
| N[C@@H](C(=O)N[C@@H]1C(=O)N2C(C(=O)O)=C(CSc3cnn[nH]3)CS[C@H]12)c1ccc(O)cc1 [sesquihydrate, 7-[D-α -amino-α-(p-hydroxyphenyl)acetamido]-3-(1,2,3-triazol-5-ylthiomethyl)-3-cephem-4-carboxylic acid sesquihydrate] |  | Bio-assay (bio potency, BL-S640 activity) (sesquihydrate): 924 µg/mg |
| O=C(O)C1=C(CSc2cnn[nH]2)CS[C@@H]2[C@H](N3C(=O)[C@@H](c4ccc(O)cc4)NC3c3ccc(S(=O)(=O)O)o3)C(=O)N12 (stereo partly drawn) [BL-S1027] | 724 |  |
| O=C(O)C1=C(CSc2cnn[nH]2)CS[C@@H]2[C@H](N3C(=O)[C@@H](c4ccc(O)cc4)NC3c3ccccc3S(=O)(=O)O)C(=O)N12 (stereo partly drawn) [BL-S1055] |  | Bio-Assay: 700 mcg./mgm. |

Where two headings read alike, the source gives them in different places.
